## Share of PSTVd loop 6 variants by leaf site

Source: Wu et al. 2024 (doi:10.1371/journal.ppat.1012142), supplementary data.

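Three N. benthamiana plants were inoculated with the whole mutant pool. Progeny were sequenced from the inoculated region (day 5), the margin of the inoculated leaf (day 10) and systemic leaves (day 12).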

PSTVd intermediate strain, loop 6: wild type UGACCGCGAG, pool pattern UNNNCGNNNG; upper and lower strand joined, each 5' to 3', the first 5 letters being the upper strand, closing pairs included.

Values are reads per thousand in the sample; higher means more abundant, 0 means not found. Each site shows the three plants. "Pool" is the share in the plasmid pool used as inoculum, on the same scale. The inoculated region was read from the minus strand, the other sites from the plus strand. Wild type was 20.7 per thousand in the pool and the most common sequence in every sample (inoculated region 195, 198, 203; leaf margin 629, 591, 734; systemic leaves 942, 870, 868). The authors trace changes outside the varied positions to PCR and sequencing errors or to mutation in the plant; presence does not show that a variant is infectious alone. Samples held 36,220 to 57,551 reads, so the smallest values rest on one or two reads.

| sequence | pool | inoculated region | leaf margin | systemic leaves |
|---|---|---|---|---|
| UCUACGCCUG | 0.261 | 0.0869 0.0359 0.0369 | 0.0276 0 0 | 0 0 0 |
| UAAUCGGGCG | 0.196 | 0.747 0.790 0.498 | 0.193 0.101 0.0696 | 0 0.0606 0.0205 |
| UGUACGCGGG | 0.288 | 0.0869 0.0898 0.0922 | 0 0 0 | 0 0 0 |
| UGUCCGUCAG | 0.248 | 0.122 0.108 0.0553 | 0 0 0.0232 | 0 0 0 |
| UGACCGUCGG | 0.405 | 0.174 0.323 0.332 | 0.883 2.40 0.0696 | 0.0359 0.0202 0.185 |
| UGCUCGAUUG | 0.301 | 0.0869 0.0719 0.111 | 0 0 0 | 0 0 0 |
| UAAGCGGUAG | 0.431 | 0.0869 0.108 0.129 | 0.331 0 0 | 0 0 0.0410 |
| UUGUCGACAG | 0.288 | 0.122 0.108 0.0184 | 0 0 0.0232 | 0 0 0.0205 |
| UAUUCGGGAG | 0.183 | 0.660 0.790 0.535 | 0.0276 0.0252 0.162 | 0 0 0 |
| UUUACGAUAG | 0.327 | 0.174 0.108 0.111 | 0 0 0.139 | 0 0 0 |
| UGGACGAUUG | 0.405 | 0.0348 0.0359 0.0922 | 0 0 0 | 0 0 0 |
| UCUCCGCACG | 0.248 | 0.0869 0.0898 0.0553 | 0 0 0 | 0 0 0 |
| UUGUCGGCUG | 0.431 | 0.0521 0.0898 0.111 | 0 0.0252 0 | 0 0 0 |
| UCUCCGCGUG | 0.170 | 0.104 0.126 0.0369 | 0.0276 0 0 | 0 0 0 |
| UCGUCGACAG | 0.209 | 0.104 0.144 0.0922 | 0.0276 0 0.0232 | 0 0 0 |
| UGUACGAAGG | 0.183 | 0.104 0.108 0.111 | 0.0276 0 0.0232 | 0 0 0 |
| UAACCGCUGG | 0.157 | 0.174 0.0539 0.129 | 0.0276 0 0 | 0 0 0 |
| UAUGCGUUGG | 0.275 | 0.0174 0.108 0.0738 | 0 0 0.0232 | 0 0 0 |
| UAAACGAACG | 0.131 | 0.678 0.575 0.572 | 0.0552 0.151 0.0696 | 0.0359 0 0.0205 |
| UUCUCGUUCG | 0.261 | 0.104 0.0180 0.0553 | 0.0276 0 0 | 0 0 0.0205 |
| UCAGCGCUGG | 0.118 | 0.104 0.0539 0.0553 | 0.0276 0 0 | 0 0 0 |
| UACACGGUAG | 0.366 | 0.0869 0.0898 0.0553 | 0 0 0 | 0 0 0 |
| UCUACGGCAG | 0.183 | 0.0695 0.0180 0.0553 | 0 0 0 | 0 0 0 |
| UUCUCGCCAG | 0.275 | 0.0695 0.0719 0.111 | 0 0 0.0232 | 0 0 0 |
| GUCGCGAUGG | 0.0131 | 0 0 0 | 0 0 0 | 0 0 0 |
| UGGCCGUAUG | 0.314 | 0.0869 0.216 0.221 | 0.414 0 0 | 0 0 0 |
| UUAGCGAGUG | 0.196 | 0.0695 0.108 0 | 0 0 0 | 0 0 0 |
| UGCGCGUACG | 0.288 | 0.104 0.0359 0.0922 | 0 0 0.0232 | 0 0 0 |
| UGUUCGGCCG | 0.209 | 0.0695 0.0898 0.0369 | 0 0 0 | 0 0 0 |
| UUCUCGUCAG | 0.353 | 0.0869 0.0898 0.0369 | 0 0 0 | 0 0 0 |
| UCCACGUCGG | 0.196 | 0.0521 0.0898 0.0553 | 0.0276 0 0 | 0 0 0 |
| UGCCCACAGG | 0.0131 | 0 0 0 | 0 0 0 | 0 0 0 |
| UGAGCGCACG | 0.131 | 0.156 0.108 0.0369 | 0 0 0 | 0 0 0 |
| UCAACGCUCG | 0.261 | 0.191 0.108 0.0922 | 0 0 0 | 0 0 0 |
| UUUGCGUCUG | 0.248 | 0.0348 0.108 0.0369 | 0 0 0 | 0 0 0 |
| UCAGCGGUCC | 0.0131 | 0 0 0 | 0 0 0 | 0 0 0 |
| UUAACGUUCG | 0.327 | 0.799 0.719 0.535 | 0.138 0.126 0.0232 | 0 0.0202 0.0615 |
| UUAACGGCCG | 0.144 | 0.886 0.647 0.645 | 0.0552 0.101 0.139 | 0 0.0404 0.0410 |
| UGAACGGACG | 0.157 | 0.712 0.736 0.535 | 0.193 0.227 0.0464 | 0 0 0 |
| UUUGCGCCUG | 0.222 | 0.104 0.0898 0.148 | 0.0276 0 0 | 0 0 0.0205 |
| UUGCCGCGGG | 0.235 | 0.0869 0.0898 0.0738 | 0 0 0 | 0 0 0 |
| UACUCGGCCG | 0.105 | 0.695 0.593 0.498 | 0.0552 0.0252 0.0464 | 0 0 0 |
| UAUGCGACUG | 0.275 | 0.0695 0.0719 0.0184 | 0 0 0.0232 | 0 0 0 |
| UCAUCGAACG | 0.248 | 0.122 0.144 0.0553 | 0 0 0.0232 | 0 0 0 |
| UGGACGAACG | 0.235 | 0.156 0.126 0.0738 | 0 0 0 | 0 0 0 |
| UAUCCGCCAG | 0.170 | 0.0521 0.0719 0.0369 | 0 0 0 | 0 0 0 |
| UGUUCGCCCG | 0.261 | 0.104 0.0898 0.129 | 0 0 0 | 0 0 0 |

6 of these entries, quoted again:

GUCGCGAUGG (pool 0.0131) read inoculated region 0 0 0; leaf margin 0 0 0; systemic leaves 0 0 0.
UCAACGCUCG (pool 0.261) read inoculated region 0.191 0.108 0.0922; leaf margin 0 0 0; systemic leaves 0 0 0.
UAACCGCUGG (pool 0.157) read inoculated region 0.174 0.0539 0.129; leaf margin 0.0276 0 0; systemic leaves 0 0 0.
UGCUCGAUUG (pool 0.301) read inoculated region 0.0869 0.0719 0.111; leaf margin 0 0 0; systemic leaves 0 0 0.
UUCUCGCCAG (pool 0.275) read inoculated region 0.0695 0.0719 0.111; leaf margin 0 0 0.0232; systemic leaves 0 0 0.
UUGCCGCGGG (pool 0.235) read inoculated region 0.0869 0.0898 0.0738; leaf margin 0 0 0; systemic leaves 0 0 0.